A mixed list of measured activities; the numbers were collected in NIAID ChemDB.

Shared fields: growth or infection tests; organism: HIV-1; cell line: MT-4; read by: p24; measure: EC95

An empty or dashed field is not shown. Conditions beyond the fields shown may differ between rows. ECn: concentration that inhibits the pathogen or its effect by n%. Two numbers with a dash give a range or band.

SMILES	strain	mutations	result
CC(=O)N(Cc1ccccc1)C1CN(C)CCn2c1nc(C(=O)NCc1ccc(F)cc1)c(O)c2=O	-	-	<1 µM
CC(C)n1c(=O)c(O)c2n(c1=O)C(CCO)CN(Cc1ccc(F)cc1)C2=O	-	-	<10 µM
N#Cc1cc(Cl)cc(Oc2cc(OCc3[nH]nc4nc(N5CC(CN)C5)ccc34)ccc2Cl)c1	-	-	<20 µM
CC(C)[C@H](NC(=O)OCc1ccccn1)C(=O)N[C@@H](Cc1ccccc1)[C@@H](O)C[C@H](Cc1ccccc1)NC(=O)OCc1cccnc1	NL4-3	PR-M46I L63P	0.8 µM
CN1CCn2c(nc(C(=O)NCc3ccc(F)cc3)c(O)c2=O)C1CN(C)S(C)(=O)=O	-	-	1–10 µM
O=C1c2c(O)c(=O)n(CC3COCCO3)c(=O)n2CCN1Cc1ccc(F)cc1	-	-	<10 µM
NS(=O)(=O)c1ccc(NC(=O)COc2cc(Cl)cc(Oc3cncc(Br)c3)c2)c(Cl)c1	-	-	<20 µM
COCC(C)n1c(=O)c(O)c2n(c1=O)CCN(Cc1ccc(F)cc1)C2=O	-	-	<10 µM
CC1(C)c2nc(C(=O)NCc3ccc(F)cc3)c(O)c(=O)n2CCN1CC(N)=O	-	-	<1 µM
CC(C)n1c(=O)c(O)c2n(c1=O)CCN(Cc1ccc(F)c(Cl)c1)C2=O	-	-	<10 µM
N#Cc1cc(Cl)cc(Oc2cc(OCc3nc4ccccc4s3)ccc2Cl)c1	-	-	<20 µM
O=C1c2c(O)c(=O)n(C3CCOCC3)c(=O)n2CCN1Cc1ccc(F)cc1	-	-	<10 µM
CS(=O)(=O)c1ccc(NC(=O)COc2cc(Cl)cc(Oc3cc(Cl)cc(C#N)c3)c2)c(Cl)c1	-	-	<20 µM
CN(C)C(=O)C(=O)N1CCN2CCn3c(nc(C(=O)NCc4ccc(F)cc4)c(O)c3=O)C1C2	-	-	<50 µM
N#Cc1cc(Cl)cc(Oc2cc(Cl)cc(OCc3nc4ccccc4s3)c2)c1	-	-	<20 µM
CN(C)C(=O)C(=O)N(C)C1CN(CCc2ccccc2)CCn2c1nc(C(=O)NCc1ccc(F)cc1)c(O)c2=O	-	-	<1 µM

2 of the rows above, restated:

| SMILES | strain | mutations | result |
|---|---|---|---|
| CS(=O)(=O)c1ccc(NC(=O)COc2cc(Cl)cc(Oc3cc(Cl)cc(C#N)c3)c2)c(Cl)c1 | - | - | <20 µM |
| CC(C)n1c(=O)c(O)c2n(c1=O)C(CCO)CN(Cc1ccc(F)cc1)C2=O | - | - | <10 µM |